System: intracellular amastigotes of L. (V) panamensis
Test: Leishmanicidal activity against intracellular amastigotes (GFP, flow cytometry, 72 h)
Format: cell-based, Leishmania (Viannia) panamensis
Conditions: LC50 U-937 / EC50 intracellular amastigotes
Protocol: The leishmanicidal activity of compounds was evaluated on intracellular amastigotes of L. panamensis transfected with the green fluorescent protein gene (MHOM/CO/87/UA140pIR-GFP). Effect of each compound was determined according to the inhibition of the infection evidenced by both decrease of the infected cells and decrease of intracellular parasite load. Briefly, U-937 human cells at a concentration of 3 × 10^5 cells/mL in RPMI 1640 and 0.1 μg/mL of PMA (phorbol-12-myristate-13-acetate) were infected with promastigotes in stationary phase growth in a 15:1 parasites per cell ratio and incubated at 34 °C and 5% CO2 for 3 h. […]
After 24 h of infection, the culture medium was replaced by fresh culture medium containing each compound at concentrations of 20 μg/mL. […] Supernatant was discarded and cells were suspended in 500 μL of PBS and analyzed by flow cytometry (FC 500MPL, Cytomics, Brea, CA, USA) counting 20.000 events. […]
Antileishmanial activity was determined according to percentage of infected cells and parasite load obtained for each experimental condition by the cytometer. Percentage of infected cells was determined as the number of positive events by double fluorescence (green for parasites and red for cells) using dotplot analysis. On the other hand, the parasitic load was determined by analysis of mean fluorescence intensity (MFI). […]

Row | Substance | SI (Selectivity Index = LC50/EC50)
1 | 3,4-dimethoxy-4'-hydroxychalcone [3,4-Dimethoxy-4'-hydroxychalcone (6)] | 0.7
2 | meglumine antimoniate [Sb(V)] | 78.7

From article PMC6271011, “Synthesis, Leishmanicidal and Cytotoxic Activity of Triclosan-Chalcone, Triclosan-Chromone and Triclosan-Coumarin Hybrids” (Molecules, 2014)
